Results of unrelated studies side by side (data: NIAID ChemDB).

Shared fields: enzyme or target tests; organism: Hepatitis C virus; target: NS3 protease

ICn is the concentration giving n% inhibition. Blank or dashed fields: not listed here. a–b is a range or a potency band. Lines come from different laboratories, so protocols vary. Inhibition is in % at the dose shown (toxicity tests: loss of growth or viability).

{"smiles": "CC(=O)N[C@H](C(=O)N[C@H](C(=O)N1C[C@H](Oc2ccnc3c(C(F)(F)F)cccc23)CC1C(=O)NC1(C(=O)O)CC1)C(C)C)C1CCCCC1", "endpoint": "IC50", "value": "6 µM"}
{"smiles": "CCC[C@H](NC(=O)[C@H](CC1CCCCC1)NC(=O)[C@@H](NC(=O)[C@H](CC(C)C)NC(=O)[C@@H](CCC(=O)O)NC(=O)[C@H](CC(=O)O)NOC(=O)CCC(=O)O)[C@H](C)CC)c1nn[nH]n1", "endpoint": "Ki", "value": "0.16 µM"}
{"smiles": "CC(=O)N[C@H](C(=O)N[C@H](C(=O)N1C[C@H](Oc2ccnc3ccccc23)C[C@H]1C(=O)NC1(C(=O)O)CC1)C(C)C)C1CCCCC1", "endpoint": "IC50", "value": "5 µM"}
{"smiles": "CC[C@@H](C=O)NC(=O)[C@H](CC(C)C)NC(=O)[C@@H](NC(=O)[C@@H](NC(=O)c1ccc2cnccc2n1)C(C)C)C(C)C", "endpoint": "Ki", "value": "1–100 µM"}
{"smiles": "CC(=O)N[C@H](C(=O)N[C@H](C(=O)N1C[C@H](Oc2cccc(-c3cccc([N+](=O)[O-])c3)c2)C[C@H]1C(=O)NC1(C(=O)O)CC1)C(C)C)C1CCCCC1", "endpoint": "IC50", "value": "6 µM"}
{"smiles": "CC[C@@H](C)[C@H](NC(=O)[C@H](CC(C)C)NC(=O)[C@@H](CCC(=O)O)NC(=O)[C@H](CC(=O)O)NOC(=O)CCC(=O)O)C(=O)N[C@@H](CC1CCCCC1)C(=O)N[C@@H](CS)C(=O)O", "endpoint": "Ki", "value": "0.928 µM"}
{"smiles": "CC[C@@H](C=O)NC(=O)[C@@H]1C[C@@H](OCc2ccccc2)CN1C(=O)[C@@H](NC(=O)C1(c2ccccc2)CC1)C(C)C", "endpoint": "Ki", "value": ">100 µM"}
{"smiles": "CC[C@H](NC(=O)[C@H](CC1CCCCC1)NC(=O)[C@@H](NC(=O)[C@H](CC(C)C)NC(=O)[C@@H](CCC(=O)O)NC(=O)[C@H](CC(=O)O)NC(C)=O)[C@H](C)CC)C(=O)/C=C/CCCC(C)C", "endpoint": "Ki", "value": "0.39 µM"}
{"smiles": "CC[C@@H](C=O)NC(=O)[C@@H]1C[C@@H](OCc2ccc(F)c(F)c2)CN1C(=O)[C@@H](NC(=O)[C@@H](NC(=O)c1cnccn1)C(C)C)C(C)C", "endpoint": "Ki", "value": "1–100 µM"}
{"smiles": "COc1ccc(-c2ccccc2O[C@@H]2CC(C(=O)NC3(C(=O)O)CC3)N(C(=O)[C@@H](NC(=O)[C@@H](NC(C)=O)C3CCCCC3)C(C)C)C2)cc1", "endpoint": "IC50", "value": ">200 µM"}
{"smiles": "C/C=C/C(=O)[C@H](CC)NC(=O)[C@H](CC1CCCCC1)NC(=O)[C@@H](NC(=O)[C@H](CC(C)C)NC(=O)[C@@H](CCC(=O)O)NC(=O)[C@H](CC(=O)O)NC(C)=O)[C@H](C)CC", "endpoint": "Ki", "value": "0.2 µM"}
{"smiles": "CCC[C@H](NC(=O)[C@@H]1C[C@@H](Oc2cc(-c3ccccc3)nc3cc(OC)ccc23)C[C@H]1C(=O)N[C@H](C(=O)N[C@@H](C(=O)OC)C1CCCCC1)C(C)C)C(=O)O", "endpoint": "inhibition", "tested at": "10 µM", "value": "37%"}
{"smiles": "COc1ccc2nccc(OC3CC(C(=O)NC4(C(=O)O)CC4)N(C(=O)[C@@H](NC(=O)[C@@H](NC(C)=O)C4CCCCC4)C(C)C)C3)c2c1", "endpoint": "IC50", "value": "16 µM"}
{"smiles": "CC[C@@H](C=O)NC(=O)[C@@H]1C[C@@H](OCc2ccccc2)CN1C(=O)[C@@H](NC(=O)/C=C/c1ccccc1)C(C)C", "endpoint": "Ki", "value": "1–100 µM"}
{"smiles": "CCCC(NC(=O)[C@H](CC1CCCCC1)NC(=O)[C@@H](NC(=O)[C@H](CC(C)C)NC(=O)[C@@H](CCC(=O)O)NC(=O)[C@H](CC(=O)O)NOC(=O)CCC(=O)O)[C@H](C)CC)C(=O)c1nn[nH]n1", "endpoint": "Ki", "value": "0.3 µM"}
{"smiles": "CC[C@H](C=O)NC(=O)[C@@H](CC(C)C)NC(=O)[C@@H](NC(=O)[C@@H](NC(=O)c1ccc(O)c(CN2CCOCC2)c1)C(C)C)C(C)C", "endpoint": "Ki", "value": "1–100 µM"}
{"smiles": "CC(=O)N[C@H](C(=O)N[C@H](C(=O)N1C[C@H](Oc2cncc3ccccc23)CC1C(=O)NC1(C(=O)O)CC1)C(C)C)C1CCCCC1", "endpoint": "IC50", "value": "4 µM"}
{"smiles": "CC[C@H](NC(=O)[C@@H]1C[C@@H](Oc2cc(-c3ccccc3)nc3cc(OC)ccc23)C[C@H]1C(=O)N[C@@H](C(=O)N[C@@H](C(=O)OC)C1CCCCC1)C(C)C)C(=O)O", "endpoint": "inhibition", "tested at": "10 µM", "value": "21%"}
{"smiles": "CCOC(=O)C(F)(F)C(=O)[C@H](CC)NC(=O)[C@@H]1C[C@@H](OCc2ccccc2)CN1C(=O)[C@@H](NC(=O)[C@@H](NC(=O)c1cnccn1)C(C)C)C(C)C", "endpoint": "Ki", "value": ">100 µM"}
{"smiles": "CC[C@H](NC(=O)[C@@H]1C[C@@H](Oc2cc(-c3ccccc3)nc3cc(OC)ccc23)C[C@H]1C(=O)N[C@H](C(=O)N[C@H](C(=O)OC)C1CCCCC1)C(C)C)C(=O)O", "endpoint": "inhibition", "tested at": "10 µM", "value": "65%"}
{"smiles": "CC[C@@H](C=O)NC(=O)[C@@H]1C[C@@H](OCc2noc(-c3ccccc3)n2)CN1C(=O)[C@@H](NC(=O)[C@@H](NC(=O)c1cnccn1)C(C)C)C(C)C", "endpoint": "Ki", "value": "1–100 µM"}
{"smiles": "CC[C@@H](C)[C@H](NC(=O)[C@H](CC(C)C)NC(=O)[C@@H](CCC(=O)O)NC(=O)[C@H](CC(=O)O)NOC(=O)CCC(=O)O)C(=O)N[C@@H](CC1CCCCC1)C(=O)NC1(C(=O)O)CC1", "endpoint": "Ki", "value": "0.091 µM"}

The last 2 rows once more:

smiles,endpoint,tested at,value
CC[C@@H](C=O)NC(=O)[C@@H]1C[C@@H](OCc2noc(-c3ccccc3)n2)CN1C(=O)[C@@H](NC(=O)[C@@H](NC(=O)c1cnccn1)C(C)C)C(C)C,Ki,-,1–100 µM
CC[C@@H](C)[C@H](NC(=O)[C@H](CC(C)C)NC(=O)[C@@H](CCC(=O)O)NC(=O)[C@H](CC(=O)O)NOC(=O)CCC(=O)O)C(=O)N[C@@H](CC1CCCCC1)C(=O)NC1(C(=O)O)CC1,Ki,-,0.091 µM